A mixed list of measured activities; the numbers were collected in NIAID ChemDB.

Percent inhibition refers to the dose given; in toxicity tests it is the harm to the cells. ECn: concentration that inhibits the pathogen or its effect by n%. MIC bound comes from a single tested concentration. ICn: concentration for n% inhibition. Blank or dashed fields: not listed here. A number after MIC or MFC names an inhibition level or a share of isolates. Fold resistance has wild type as its base. Lines come from different laboratories, so protocols vary.

compound	test	organism	strain	changes	cell line	target	method	endpoint	tested at	value
C=CCC(=O)O	culture	Mycobacterium tuberculosis	H37Rv	-	-	-	-	MIC	-	>100 µg/mL
O=C(Nc1nnc(NCCc2c[nH]c3ccccc23)s1)c1ccc(I)cc1	target	Human cytomegalovirus	-	-	-	Polymerase	-	IC50	-	>25 µM
COc1cc(C[C@H](C)[C@H](C)Cc2ccc(O)c(O)c2)ccc1O	culture	Candida albicans	CCC 126-2000	-	-	-	broth dilution	MIC80	-	31.25 µg/mL
FC(F)(F)c1cccc(N2CCN(c3cncc(-c4ccc5ccccc5c4)n3)CC2)c1	target	Cytomegalovirus	-	-	-	UL97 kinase	-	inhibition	10 µM	>15%
O=C1NC(=O)c2cc([N+](=O)[O-])ccc21	culture	Mycobacterium tuberculosis	H37Rv	-	-	-	-	MIC	-	>100 µg/mL
Cc1cc(-c2ccc(N=Nc3c(S(=O)(=O)O)cc4cc(S(=O)(=O)O)cc(N)c4c3O)c(C)c2)ccc1N=Nc1c(S(=O)(=O)O)cc2cc(S(=O)(=O)O)cc(N)c2c1O	culture	Herpes simplex virus	-	-	Human conjunctiva cells	-	cytopathic effect	inhibition	50 µg/mL	100%
O=[N+]([O-])c1cccc2cn[nH]c12	culture	Mycobacterium tuberculosis	H37Rv	-	-	-	-	MIC	-	>100 µg/mL
CCOc1ccc(-c2cncc(N3CCN(c4cccc(Cl)c4)CC3)n2)cc1	target	Cytomegalovirus	-	-	-	UL97 kinase	-	inhibition	1 µM	<50%
N#Cc1ccc(C(=O)Nc2nnc(NCc3cccc4ccccc34)s2)cc1	target	Human cytomegalovirus	-	-	-	Polymerase	-	IC50	-	<25 µM
Nc1c(S(=O)(=O)[O-])cc2cc(S(=O)(=O)[O-])ccc2c1O	culture	Rhinovirus	-	-	Human embryonic lung cells	-	cytopathic effect	inhibition	10 µg/mL	65%
CC[C@H]1C(=O)Nc2ccc(F)cc2N1C(=O)OC(C)C	target	HIV	-	RT-N137A	-	Reverse transcriptase	nucleotide incorporation / radiometric	fold resistance	-	0.91
COc1ccc2cc(C(=O)CCC(=O)O)cc(NC(C)=O)c2c1	culture	Mycobacterium tuberculosis	H37Rv	-	-	-	-	MIC	-	>100 µg/mL
COc1cc(-c2ccc(N=Nc3ccc4c(S(=O)(=O)O)cc(S(=O)(=O)O)c(N)c4c3O)c(OC)c2)ccc1N=Nc1ccc2c(S(=O)(=O)O)cc(S(=O)(=O)O)c(N)c2c1O	culture	Herpes simplex virus	-	-	Human amnion AV3 cells	-	cytopathic effect	inhibition	5 µg/mL	0%
CCCCCCCCN1C(=O)CCC1=O	culture	Mycobacterium tuberculosis	H37Rv	-	-	-	-	MIC	-	50 µg/mL
Cc1cc(C)cc(-c2cncc(N3CCN(c4ccccc4)CC3)n2)c1	target	Cytomegalovirus	-	-	-	UL97 kinase	-	IC50	-	<100 µM
Nc1nc2c(ncn2[C@H]2CC[C@@H](COP(=O)(O)OP(=O)(O)OP(=O)(O)O)O2)c(=O)[nH]1	target	HIV	-	RT-N137T	-	Reverse transcriptase	nucleotide incorporation / radiometric	fold resistance	-	44
CCN(CC)CCCNc1cc(-c2ccc(Cl)cc2)nc2cc(Cl)ccc12	culture	Mycobacterium tuberculosis	H37Rv	-	-	-	-	MIC	-	12.5 µg/mL
O=C1C(c2[nH]c3ccc(S(=O)(=O)O)cc3c2O)=Nc2ccc(S(=O)(=O)O)cc21	culture	Adenovirus	TYPE 3	-	Human amnion AV3 cells	-	cytopathic effect	inhibition	50 µg/mL	0%
O=C(/C=C/c1ccccc1)Nc1nnc(NCc2ccccn2)s1	target	Human cytomegalovirus	-	-	-	Polymerase	-	IC50	-	<25 µM
Nc1c(S(=O)(=O)O)cc2cc(S(=O)(=O)O)cc(O)c2c1O	culture	Adenovirus	TYPE 3	-	Human embryonic lung cells	-	cytopathic effect	inhibition	50 µg/mL	90%
CCOC(=O)c1c(O)c(C)c[nH]c1=O	culture	Mycobacterium tuberculosis	H37Rv	-	-	-	-	MIC	-	>100 µg/mL
Cc1cn([C@@H]2O[C@H](CO[Si](C)(C)C(C)(C)C)C3(OS(=O)(=O)C=C3N)[C@H]2O[Si](C)(C)C(C)(C)C)c(=O)n(C)c1=O	target	HIV	-	RT-P140A	-	Reverse transcriptase	nucleotide incorporation / radiometric	fold resistance	-	0.38
c1cc(N2CCN(c3cncc(-c4ccsc4)n3)CC2)ccn1	target	Cytomegalovirus	-	-	-	UL97 kinase	-	IC50	-	<10 µM
CCO/N=C/c1ccc(OCCC2CCN(c3ccc(C)nn3)CC2)cc1	culture	Rhinovirus	CH47 (ICAM-1 receptor group 57)	-	KB	-	neutral red	EC50	-	0.109 µM
CCOc1ccc2ccccc2c1C(=O)Nc1nnc(NCC2CCCO2)s1	target	Human cytomegalovirus	-	-	-	Polymerase	-	IC50	-	>25 µM
N#Cc1ccccc1N1CCN(c2cncc(-c3ccc(F)c(Cl)c3)n2)CC1	target	Cytomegalovirus	-	-	-	UL97 kinase	-	inhibition	1 µM	<50%
O=C1CCC(c2ccccc2)(c2ccccc2)O1	culture	Mycobacterium tuberculosis	H37Rv	-	-	-	-	MIC	-	50 µg/mL
O=C(Nc1nnc(NCCSc2ccccc2)s1)c1ccc(I)cc1	target	Human cytomegalovirus	-	-	-	Polymerase	-	IC50	-	>25 µM
C/C(=N\O)C(=O)c1ccccc1	culture	Mycobacterium tuberculosis	H37Rv	-	-	-	-	MIC	-	50 µg/mL
Cc1cc(C)cc(-c2cncc(N3CCN(c4ccncc4)CC3)n2)c1	target	Cytomegalovirus	-	-	-	UL97 kinase	-	IC50	-	<10 µM
Cc1ccc(-c2ccccc2C(=O)O)cc1	culture	Mycobacterium tuberculosis	H37Rv	-	-	-	-	MIC	-	>100 µg/mL
O=C(O)c1cc(S(=O)(=O)[O-])ccc1O	culture	Rhinovirus	-	-	Human amnion AV3 cells	-	cytopathic effect	inhibition	50 µg/mL	0%
Cn1c(CN2CCOCC2)nc2c3ccccc3ccc21	culture	Mycobacterium tuberculosis	H37Rv	-	-	-	-	MIC	-	>100 µg/mL
COc1ccc(N2CCN(c3cncc(-c4ccc(CN)cc4)n3)CC2)cc1OC	target	Cytomegalovirus	-	-	-	UL97 kinase	-	inhibition	10 µM	>15%
O=S1(=O)c2ccccc2Oc2cc(Cl)ccc21	culture	Mycobacterium tuberculosis	H37Rv	-	-	-	-	MIC	-	100 µg/mL
NC1=NN(c2ccccc2)C(=O)C1/C(=N/NC(=O)c1cc2ccccc2cc1O)C(=O)Nc1nc([N+](=O)[O-])cs1	culture	Mycobacterium tuberculosis	H37Rv	-	-	-	resazurin	MIC bound	-	>6.25 µg/mL
O=C(/C=N/O)Nc1ccccc1	culture	Mycobacterium tuberculosis	H37Rv	-	-	-	-	MIC	-	>100 µg/mL
O=C(Nc1nnc(NCc2ccc(F)cc2)s1)c1ccc2c(c1)C(=O)OC2=O	target	Human cytomegalovirus	-	-	-	Polymerase	-	IC50	-	<25 µM
FC(F)(F)c1ccc(N2CCN(c3cncc(-c4ccoc4)n3)CC2)cc1	target	Cytomegalovirus	-	-	-	UL97 kinase	-	inhibition	10 µM	>15%
COc1c(Cl)c(C)c(Cl)c(C)c1C(=O)O	culture	Mycobacterium tuberculosis	H37Rv	-	-	-	-	MIC	-	>100 µg/mL
CCCCC(CC)CNc1nnc(NC(=O)c2ccc(Cl)c(Cl)c2)s1	target	Human cytomegalovirus	-	-	-	Polymerase	-	IC50	-	>25 µM
Fc1ccccc1N1CCN(c2cncc(-c3ccc4ccccc4c3)n2)CC1	target	Cytomegalovirus	-	-	-	UL97 kinase	-	IC50	-	<10 µM

The last 6 rows once more:

compound	test	organism	strain	changes	cell line	target	method	endpoint	tested at	value
O=C(/C=N/O)Nc1ccccc1	culture	Mycobacterium tuberculosis	H37Rv	-	-	-	-	MIC	-	>100 µg/mL
O=C(Nc1nnc(NCc2ccc(F)cc2)s1)c1ccc2c(c1)C(=O)OC2=O	target	Human cytomegalovirus	-	-	-	Polymerase	-	IC50	-	<25 µM
FC(F)(F)c1ccc(N2CCN(c3cncc(-c4ccoc4)n3)CC2)cc1	target	Cytomegalovirus	-	-	-	UL97 kinase	-	inhibition	10 µM	>15%
COc1c(Cl)c(C)c(Cl)c(C)c1C(=O)O	culture	Mycobacterium tuberculosis	H37Rv	-	-	-	-	MIC	-	>100 µg/mL
CCCCC(CC)CNc1nnc(NC(=O)c2ccc(Cl)c(Cl)c2)s1	target	Human cytomegalovirus	-	-	-	Polymerase	-	IC50	-	>25 µM
Fc1ccccc1N1CCN(c2cncc(-c3ccc4ccccc4c3)n2)CC1	target	Cytomegalovirus	-	-	-	UL97 kinase	-	IC50	-	<10 µM